In PubChem BioAssay (NCI):
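Protocol summary: plate cells (96-well), add compound at 5 concentrations, incubate 48 h, interpolate endpoints linearly. GI50: concentration for 50% inhibition of growth. TGI: total growth inhibition.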

Legend:
Test in all cases: NCI-60 cell line screen, 48 h
786-0 renal = test system: 786-0 renal
A498 renal = test system: A498 renal
A549 NSCLC = test system: A549 NSCLC
ACHN renal = test system: ACHN renal
BT-549 breast = test system: BT-549 breast
CAKI-1 renal = test system: CAKI-1 renal
CCRF-CEM leukemia = test system: CCRF-CEM leukemia
COLO 205 colon = test system: COLO 205 colon
DU-145 prostate = test system: DU-145 prostate
EKVX NSCLC = test system: EKVX NSCLC
HCC-2998 colon = test system: HCC-2998 colon
HCT-116 colon = test system: HCT-116 colon
HCT-15 colon = test system: HCT-15 colon
HL-60(TB) leukemia = test system: HL-60(TB) leukemia
HOP-62 NSCLC = test system: HOP-62 NSCLC
HOP-92 NSCLC = test system: HOP-92 NSCLC
HT29 colon = test system: HT29 colon
IGROV1 ovarian = test system: IGROV1 ovarian
K-562 leukemia = test system: K-562 leukemia
KM12 colon = test system: KM12 colon
LOX IMVI melanoma = test system: LOX IMVI melanoma
M14 melanoma = test system: M14 melanoma
MCF7 breast = test system: MCF7 breast
MDA-MB-231 breast = test system: MDA-MB-231 breast
MDA-MB-435 = test system: MDA-MB-435
MDA-N = test system: MDA-N
MOLT-4 leukemia = test system: MOLT-4 leukemia
NCI-H226 lung = test system: NCI-H226 lung
NCI-H23 lung = test system: NCI-H23 lung
NCI-H460 lung = test system: NCI-H460 lung
NCI-H522 lung = test system: NCI-H522 lung
NCI/ADR-RES ovarian = test system: NCI/ADR-RES ovarian
OVCAR-3 ovarian = test system: OVCAR-3 ovarian
OVCAR-4 ovarian = test system: OVCAR-4 ovarian
OVCAR-5 ovarian = test system: OVCAR-5 ovarian
OVCAR-8 ovarian = test system: OVCAR-8 ovarian
PC-3 prostate = test system: PC-3 prostate
RPMI-8226 leukemia = test system: RPMI-8226 leukemia
RXF 393 renal = test system: RXF 393 renal
SF-268 CNS = test system: SF-268 CNS
SF-295 CNS = test system: SF-295 CNS
SF-539 CNS = test system: SF-539 CNS
SK-MEL-2 melanoma = test system: SK-MEL-2 melanoma
SK-MEL-28 melanoma = test system: SK-MEL-28 melanoma
SK-OV-3 ovarian = test system: SK-OV-3 ovarian
SNB-75 CNS = test system: SNB-75 CNS
SR leukemia = test system: SR leukemia
SW-620 colon = test system: SW-620 colon
T-47D breast = test system: T-47D breast
TK-10 renal = test system: TK-10 renal
U251 CNS = test system: U251 CNS
UACC-257 melanoma = test system: UACC-257 melanoma
UACC-62 melanoma = test system: UACC-62 melanoma
UO-31 renal = test system: UO-31 renal

SMILES: CC1=CC2O[C@@H]3C[C@H]4OC(=O)/C=C\C=C\C56OCCC7(OC7C(=O)OCC2(CC1)[C@]4(C)[C@]31CO1)C5OC(O)C6O (stereo partly specified)
- GI50 (786-0 renal): < 1 nM
- TGI (786-0 renal): 2.18 nM
- GI50 (A498 renal): 4.92 nM
- TGI (A498 renal): > 10000 nM
- GI50 (A549 NSCLC): 2.96 nM
- TGI (A549 NSCLC): > 10000 nM
- GI50 (ACHN renal): 1.69 nM
- TGI (ACHN renal): 224 nM
- GI50 (BT-549 breast): 1.33 nM
- TGI (BT-549 breast): 2.41 nM
- GI50 (CAKI-1 renal): 1.88 nM
- TGI (CAKI-1 renal): 557 nM
- GI50 (CCRF-CEM leukemia): 2.15 nM
- GI50 (COLO 205 colon): 3.3 nM
- TGI (COLO 205 colon): > 10000 nM
- GI50 (DU-145 prostate): 2.65 nM
- TGI (DU-145 prostate): 231 nM
- GI50 (EKVX NSCLC): 1.88 nM
- TGI (EKVX NSCLC): 7.07 nM
- GI50 (HCC-2998 colon): 1.47 nM
- TGI (HCC-2998 colon): 4.03 nM
- GI50 (HCT-116 colon): 2.64 nM
- TGI (HCT-116 colon): 1650 nM
- GI50 (HCT-15 colon): 1.56 nM
- GI50 (HL-60(TB) leukemia): 2.01 nM
- GI50 (HOP-62 NSCLC): 1.76 nM
- TGI (HOP-62 NSCLC): > 10000 nM
- GI50 (HOP-92 NSCLC): 2.18 nM
- TGI (HOP-92 NSCLC): 175 nM
- GI50 (HT29 colon): 1.58 nM
- TGI (HT29 colon): 2.86 nM
- GI50 (IGROV1 ovarian): 1.73 nM
- TGI (IGROV1 ovarian): 3.39 nM
- GI50 (K-562 leukemia): 11.9 nM
- TGI (K-562 leukemia): > 10000 nM
- GI50 (KM12 colon): 1.67 nM
- TGI (KM12 colon): 4.89 nM
- GI50 (LOX IMVI melanoma): 1.62 nM
- GI50 (M14 melanoma): 1.86 nM
- TGI (M14 melanoma): 4.08 nM
- GI50 (MCF7 breast): 1.76 nM
- TGI (MCF7 breast): > 10000 nM
- GI50 (MDA-MB-231 breast): 5.18 nM
- TGI (MDA-MB-231 breast): > 10000 nM
- GI50 (MDA-MB-435): 1.49 nM
- TGI (MDA-MB-435): 3.1 nM
- GI50 (MDA-N): 1.66 nM
- TGI (MDA-N): 3.69 nM
- GI50 (MOLT-4 leukemia): 1.26 nM
- GI50 (NCI-H226 lung): 1.79 nM
- TGI (NCI-H226 lung): 4.33 nM
- GI50 (NCI-H23 lung): 2.87 nM
- TGI (NCI-H23 lung): 13 nM
- GI50 (NCI-H460 lung): 1.75 nM
- GI50 (NCI-H522 lung): 1.18 nM
- TGI (NCI-H522 lung): 6.41 nM
- GI50 (NCI/ADR-RES ovarian): < 1 nM
- TGI (NCI/ADR-RES ovarian): 4.35 nM
- GI50 (OVCAR-3 ovarian): 2.06 nM
- TGI (OVCAR-3 ovarian): 666 nM
- GI50 (OVCAR-4 ovarian): 1.79 nM
- TGI (OVCAR-4 ovarian): 114 nM
- GI50 (OVCAR-5 ovarian): 2.9 nM
- TGI (OVCAR-5 ovarian): > 10000 nM
- GI50 (OVCAR-8 ovarian): 1.74 nM
- TGI (OVCAR-8 ovarian): 6.28 nM
- GI50 (PC-3 prostate): 1.93 nM
- TGI (PC-3 prostate): 51.2 nM
- GI50 (RPMI-8226 leukemia): 1.93 nM
- TGI (RPMI-8226 leukemia): > 10000 nM
- GI50 (RXF 393 renal): 1.66 nM
- TGI (RXF 393 renal): 4.41 nM
- GI50 (SF-268 CNS): 2.72 nM
- TGI (SF-268 CNS): > 10000 nM
- GI50 (SF-295 CNS): 2.32 nM
- TGI (SF-295 CNS): 9.27 nM
- GI50 (SF-539 CNS): 1.45 nM
- TGI (SF-539 CNS): 2.65 nM
- GI50 (SK-MEL-2 melanoma): 1.83 nM
- TGI (SK-MEL-2 melanoma): 13.2 nM
- GI50 (SK-MEL-28 melanoma): 1.82 nM
- TGI (SK-MEL-28 melanoma): 14.7 nM
- GI50 (SK-OV-3 ovarian): 3.49 nM
- TGI (SK-OV-3 ovarian): 31.4 nM
- GI50 (SNB-75 CNS): 1.69 nM
- TGI (SNB-75 CNS): 2.94 nM
- GI50 (SR leukemia): < 1 nM
- GI50 (SW-620 colon): 2.02 nM
- TGI (SW-620 colon): > 10000 nM
- GI50 (T-47D breast): 2.4 nM
- TGI (T-47D breast): 217 nM
- GI50 (TK-10 renal): 1.86 nM
- TGI (TK-10 renal): 137 nM
- GI50 (U251 CNS): 3.13 nM
- TGI (U251 CNS): > 10000 nM
- GI50 (UACC-257 melanoma): < 1 nM
- TGI (UACC-257 melanoma): 1.76 nM
- GI50 (UACC-62 melanoma): 1.44 nM
- TGI (UACC-62 melanoma): 3.1 nM
- GI50 (UO-31 renal): 2.38 nM
- TGI (UO-31 renal): 226 nM
